Source: PMC3111433, “Francisella tularensis 2-C-Methyl-D-Erythritol 4-Phosphate Cytidylyltransferase: Kinetic Characterization and Phosphoregulation” (2011)

Columns and labels:
[1] = target: Francisella tularensis MEP cytidylyltransferase T141E mutant (Francisella tularensis subsp. holarctica LVS)
[2] = target: Francisella tularensis MEP cytidylyltransferase T141D mutant (Francisella tularensis subsp. holarctica LVS)

Francisella tularensis MEP cytidylyltransferase T141E mutant
stoichiometry N [1]: 2

Francisella tularensis MEP cytidylyltransferase T141D mutant
stoichiometry N [2]: 2
